{"source": "patent US20160228506A1", "about": "“Compositions and Formulations for Prevention and Reduction of Tumorigenesis, Cancer Cell Proliferation and Invasion, and Methods of Production and Use Thereof in Cancer Treatment” (PRONUTRIA, INC., priority 2013, published 2016)", "molecules": {"B1": {"name": "SEQID-00298 (protein, listed as Bos taurus)", "chain": "MGLSDGEWQLVLNAWGKVEADVAGHGQEVLIRLFTGHPETLEKFDKFKHLKTEAEMKASEDLKKHGNTVLTALGGILKKKGHHEAEVKHLAESHANKHKIPVKYLEFISDAIIHVLHAKHPSDFGADAQAAMSKALELFRNDMAAQYKVLGFHG"}, "B2": {"name": "SEQID-00354: nutritive polypeptide (protein)", "chain": "MSLSNKLTLDKLDVKGKRVVMRVDFNVPMKNNQITNNQRIKAAVPSIKYCLDSGAKSVVLMSHLGRPDGVPMPDKYSLQPVAVELKSLLGKDVLFLKDCVGPEVEKACADPAAGSVILLENLRFHVEEEGKGKDASGNKVKAEPTKIEAFRASLSKLGDVYVNDAFGTAHRAHSSMVGVNLPKKAGGFLMKKELNYFAKALESPERPFLAILGGAKVADKIQLISNMLDKVNEMIIGGGMAFTFLKVLNNMEIGTSLFDEEGSKIVKDLMSKADKNGVKITLPVDFVTADKFDENAKTGQATVASGIPVGWMGLDCGPESSKKYAEAVARAKQIVWNGPVGVFEWEAFARGTKALMDEVVKATSRGCITIIGGGDTATCCAKWNTEDKVSHVSTGGGASLELLEGKVLPGVDALSSV", "modifications": "Ovis aries", "notes": "nutritive polypeptide"}}, "assay": "Anti-FLAG ELISA of protein secretion in Aspergillus niger", "settings": "for ELISA 10 ml shake flask: 10 ml minimal medium; for ELISA 10 ml shake flask / ELISA 1 litre shake flask: three days; for ELISA 1 litre shake flask: one litre minimal media; for ELISA 1st MTP: primary transformants, 96 deep well, 72 hrs, culture supernatant; for ELISA 2nd MTP: retest after single spore purification", "data": [{"molecule": "B1", "values": [{"measurement": "ELISA 10 ml shake flask", "result": "1.3 to 79.4", "unit": "mg/L"}, {"measurement": "ELISA 1 litre shake flask", "result": "93.9 to 224.3", "unit": "mg/L"}, {"measurement": "ELISA 1st MTP", "result": "66.0 to 215.4", "unit": "mg/L"}, {"measurement": "ELISA 2nd MTP", "result": "5.2 to 119.5", "unit": "mg/L"}]}, {"molecule": "B2", "values": [{"measurement": "ELISA 10 ml shake flask", "result": "0.9 to 7.8", "unit": "mg/L"}, {"measurement": "ELISA 1 litre shake flask", "result": "0 to 1.2", "unit": "mg/L"}, {"measurement": "ELISA 1st MTP", "result": "9.1 to 120.4", "unit": "mg/L"}, {"measurement": "ELISA 2nd MTP", "result": "0 to 47.2", "unit": "mg/L"}]}]}
